A mixed list of measured activities; the numbers were collected in NIAID ChemDB.

Shared fields: growth or infection tests

Lines come from different laboratories, so protocols vary. ECn: concentration that inhibits the pathogen or its effect by n%. Blank or dashed fields: not listed here. Inhibition is in % at the dose shown (toxicity tests: loss of growth or viability).

compound | measure | organism | mutations | cell line | method | tested at | strain or isolate | result
CCCc1cc(=O)oc2c3c(c4c(c12)OC(C)(C)[C@H](O)[C@@H]4O)O[C@H](C)[C@@H](C)[C@@H]3O | EC50 | Measles virus |  | CV-1 | cytopathic effect |  | BIL | 0.9 µg/mL
Nc1ncnc2c1ncn2[C@@H]1C[C@H](N)[C@@H](O)[C@H]1O | EC50 | Measles virus |  | CV-1 | cytopathic effect |  | Edmonston | 60 µg/mL
CCC(CC)O[C@@H]1C=C(C(=O)O)C[C@H](N)[C@H]1NC(C)=O | EC50 | Influenza A virus |  | MDCK | visual reading |  | H3N2 A/X-31 | 0.03 µM
Cc1cc(NS(=O)(=O)c2ccc(NC(=S)NCc3ccc(F)cc3)cc2)no1 | EC50 | SIV |  | CEM174 | syncytia |  |  | 9.9 µM
CCOC(=O)c1sc(SC)c(C#N)c1O | MIC | Trichophyton mentagrophytes |  |  |  |  | A-280 | 50 µg/mL
CC(C)(O)c1cn(-c2ccc([N+](=O)[O-])cc2)nn1 | inhibition | Candida parapsilosis |  |  | broth dilution | 2048 µg/mL | URM 4970 | 0%
CCOC(=O)c1sc(SC)cc1-c1ccccc1 | MIC | Trichophyton mentagrophytes |  |  |  |  | A-280 | >100 µg/mL
CCC(CC)O[C@@H]1C=C(C(=O)O)C[C@H](N)[C@H]1NC(C)=O | EC50 | Influenza A virus |  | MDCK | plaque count |  | Influenza A H3N2 isolate C32C | 0.075 µg/mL
Cc1cccc(Cn2ccc3nc(-c4ccccc4)nc-3c2)c1 | EC50 | Bovine viral diarrhea virus |  | MDBK | cytopathic effect |  | PE515 | 0.013 µg/mL
CSc1cc(-c2ccc(Cl)cc2)c(C(=O)O)s1 | MIC | Trichophyton mentagrophytes |  |  |  |  | A-280 | >100 µg/mL
CCOC(=O)c1ccc(NC(=S)Nc2ccc(S(=O)(=O)Nc3cc(C)on3)cc2)cc1 | EC50 | SIV |  | CEM174 | syncytia |  |  | 5 µM
CCCc1cc(=O)oc2cc(OC(=O)CC)cc(O)c12 | EC50 | Measles virus |  | CV-1 | virus yield |  | Chicago-1 | <40 µg/mL
COc1ccccc1NC(=S)Nc1ccc(S(=O)(=O)Nc2cc(C)on2)cc1 | EC50 | SIV |  | CEM174 | syncytia |  |  | 6.4 µM
CS[C@H]1C=C[C@@H](n2cnc3c(N)ncnc32)C1 | EC50 | Measles virus |  | CV-1 | neutral red |  |  | >100 µg/mL
CC[C@H]1OC(=O)[C@H](C)C(=O)[C@H](C)[C@@H](O[C@@H]2O[C@H](C)C[C@H](N(C)C)[C@H]2O)[C@@]2(C)C[C@@H](C)C(=NC(C)=O)[C@H](C)C(OC/C(=C\C=C\c3ccc([N+](=O)[O-])cc3)CO2)[C@]1(C)O | MIC | Streptococcus pneumoniae |  |  |  |  | 7701 (erythromycin-resistant-MEF) | 0.5 µg/mL
CCCCOC(=O)c1ccc(NC(=S)Nc2ccc(S(=O)(=O)Nc3cc(C)on3)cc2)cc1 | EC50 | SIV |  | CEM174 | syncytia |  |  | 1.2 µM
Nc1nc2c(ncn2CC(CO)CCO)c(=O)[nH]1 | EC50 | Simian varicella-zoster virus |  | GMK | plaque count |  |  | 91 µM
CC(=O)NC[C@H]1CN(c2ccc(-c3cccs3)c(F)c2)C(=O)O1 | MIC | Staphylococcus epidermidis |  |  |  |  | UC12084 (methicillin-resistant) | ≤0.125 µg/mL
CC[C@H]1OC(=O)[C@H](C)C(=O)[C@H](C)[C@@H](O[C@@H]2O[C@H](C)C[C@H](N(C)C)[C@H]2O)[C@@]2(C)C[C@@H](C)C(=NC(=O)CN)[C@H](C)C(OC/C(=C\C=C\c3ccccc3)CO2)[C@]1(C)O | MIC | Streptococcus pneumoniae |  |  |  |  | 49619 (erythromycin-susceptible) | <0.06 µg/mL
C=Cc1cn(OCCO)c(=O)[nH]c1=O | EC50 | Duck hepatitis B virus |  |  |  |  |  | >10 µg/mL
Cc1cc(NS(=O)(=O)c2ccc(NC(=S)Nc3ccc(Br)cc3)cc2)no1 | EC50 | SIV |  | CEM174 | syncytia |  |  | 3.9 µM
Nc1ncnc2c1ncn2[C@@H]1CC[C@@H](O)[C@H]1O | EC50 | Measles virus |  | CV-1 | cytopathic effect |  | BIL | >10 µg/mL
CC[C@H]1OC(=O)[C@H](C)C(=O)[C@H](C)[C@@H](O[C@@H]2O[C@H](C)C[C@H](N(C)C)[C@H]2O)[C@@]2(C)C[C@@H](C)C(=NC(C)=O)[C@H](C)C(OC/C(=C\C=C\c3ccc(F)cc3)CO2)[C@]1(C)O | MIC | Streptococcus pneumoniae |  |  |  |  | 700906 (erythromycin-resistant-ERM) | 2 µg/mL
CCCc1cc(=O)oc2cc(OC(=O)C(C)(C)C)c3c(c12)OC(C)(C)C=C3 | EC50 | Measles virus |  | CV-1 | cytopathic effect |  | Chicago | 0.6 µg/mL
CC[C@H]1OC(=O)[C@H](C)C(=O)[C@H](C)[C@@H](O[C@@H]2O[C@H](C)C[C@H](N(C)C)[C@H]2O)[C@@]2(C)C[C@@H](C)C(=NC(C)=O)[C@H](C)C(OC/C(=C\C#Cc3ccc(N)nc3)CO2)[C@]1(C)O | MIC | Streptococcus pneumoniae |  |  |  |  | 7701 (erythromycin-resistant-MEF) | 0.13 µg/mL
CC(=O)NC[C@H]1CN(c2ccc(-c3csc(C)c3)c(F)c2)C(=O)O1 | MIC | Staphylococcus epidermidis |  |  |  |  | UC12084 (methicillin-resistant) | 0.5 µg/mL
CC(C)(O)c1cn(-c2ccc3ccccc3c2)nn1 | inhibition | Candida parapsilosis |  |  | broth dilution | 2048 µg/mL | URM 4984 | 0%
Cc1cc(NS(=O)(=O)c2ccc(NC(=S)NCc3ccccc3)cc2)no1 | EC50 | SIV |  | CEM174 | syncytia |  |  | 7.8 µM
CCOC(=O)c1sc(SC)cc1-c1ccc(F)cc1 | MIC | Trichophyton mentagrophytes |  |  |  |  | A-280 | >100 µg/mL
CC(=O)NC[C@H]1CN(c2ccc(-c3ccn(C)n3)c(F)c2)C(=O)O1 | MIC | Staphylococcus epidermidis |  |  |  |  | UC12084 (methicillin-resistant) | 2 µg/mL
CCO[C@@H]1[C@@H](OCC)[C@H](Cc2ccccc2)O[C@@H]2CO[C@@H](c3ccc(Cl)cc3)O[C@@H]12 | EC50 | West Nile virus |  | HFF | cytopathic effect |  |  | >50 µg/mL
Nc1nc2c(ncn2[C@H]2C[C@H](F)[C@@H](CO)O2)c(=O)[nH]1 | EC50 | Duck hepatitis B virus |  | Primary duck hepatocytes |  |  |  | 0.05 µM
Fc1ccc(Cn2ccc3nc(-c4c(F)ccc(F)c4F)nc-3c2)c(F)c1 | EC50 | Bovine viral diarrhea virus |  | MDBK | cytopathic effect |  |  | 0.021 µg/mL
CCCOC(=O)c1ccc(NC(=S)Nc2ccc(S(=O)(=O)Nc3cc(C)on3)cc2)cc1 | EC50 | SIV |  | CEM174 | syncytia |  |  | 4.5 µM
CCOC(=O)c1sc2cc(-c3cc(F)c(Cl)cc3Cl)oc(=O)c2c1N | MIC | Trichophyton mentagrophytes |  |  |  |  | A-280 | >100 µg/mL
Cc1cc(NS(=O)(=O)c2ccc(NC(=S)Nc3ccc(C#N)cc3)cc2)no1 | EC50 | SIV |  | CEM174 | syncytia |  |  | 4.1 µM
CCCc1cc(=O)oc2cc(OS(=O)(=O)c3ccc(C)cc3)cc(O)c12 | EC50 | Measles virus |  | CV-1 | cytopathic effect |  | Edmonston | 0.4 µg/mL
CC(=O)NC[C@H]1CN(c2ccc(-c3nsc(C#N)n3)c(F)c2)C(=O)O1 | MIC | Staphylococcus epidermidis |  |  |  |  | UC12084 (methicillin-resistant) | 2 µg/mL
c1ccc(-c2ccc(Cn3ccc4nc(-c5ccccc5)nc-4c3)cc2)cc1 | EC50 | Bovine viral diarrhea virus |  | MDBK | cytopathic effect |  | PE515 | 0.945 µg/mL
CSc1cc(-c2ccc(C)cc2)c(C(=O)O)s1 | MIC | Trichophyton mentagrophytes |  |  |  |  | A-280 | >100 µg/mL
CCC(C)n1ncn(-c2ccc(N3CCN(c4ccc(OC[C@H]5CO[C@](Cn6cncn6)(c6ccc(Cl)cc6Cl)O5)cc4)CC3)cc2)c1=O | inhibition | Aspergillus fumigatus | sakA |  | broth dilution | 1 µg/mL | AF293 | 99.45%
CC(C)CS[C@@H]1C[C@H](n2cnc3c(N)ncnc32)[C@@H](O)[C@H]1O | EC50 | Measles virus |  | CV-1 | cytopathic effect |  |  | >100 µg/mL
CC[C@H]1OC(=O)[C@H](C)C(=O)[C@H](C)[C@@H](O[C@@H]2O[C@H](C)C[C@H](N(C)C)[C@H]2O)[C@@]2(C)C[C@@H](C)/C(=N\C(=O)OC)[C@H](C)C(OC/C(=C\C=C\c3ccccc3)CO2)[C@]1(C)O | MIC | Streptococcus pneumoniae |  |  |  |  | 7701 (erythromycin-resistant-MEF) | 0.5 µg/mL
COc1cccc(NC(=S)Nc2ccc(S(=O)(=O)Nc3cc(C)on3)cc2)c1 | EC50 | SIV |  | CEM174 | syncytia |  |  | 4 µM
Nc1ncnc2c1ncn2[C@@H]1C=C[C@@H](O)[C@H]1O | EC50 | Measles virus |  | CV-1 | cytopathic effect |  | Chicago | 1 µg/mL
CCOC(=O)c1sc(SC)cc1-c1ccc(Cl)cc1 | MIC | Trichophyton mentagrophytes |  |  |  |  | A-280 | >100 µg/mL
Clc1cccc(Cn2ccc3nc(-c4ccccc4)nc-3c2)c1 | EC50 | Bovine viral diarrhea virus |  | MDBK | cytopathic effect |  | PE515 | 0.042 µg/mL
CCOC(=O)c1sc(SC)cc1-c1ccc(Br)cc1 | MIC | Trichophyton mentagrophytes |  |  |  |  | A-280 | >100 µg/mL
Nc1nc2c(ncn2COC(CO)CO)c(=O)[nH]1 | inhibition | Herpes simplex virus 1 |  | WI-38 | plaque count | 1 µM | KOS mutant PFA-R1 | 90%
CC(C)(O)c1cn(-c2cccc3ccccc23)nn1 | inhibition | Candida krusei |  |  | broth dilution | 2048 µg/mL | URM 4802 | 0%

Repeating the final 7 entries:

{"compound": "COc1cccc(NC(=S)Nc2ccc(S(=O)(=O)Nc3cc(C)on3)cc2)c1", "measure": "EC50", "organism": "SIV", "cell line": "CEM174", "method": "syncytia", "result": "4 µM"}
{"compound": "Nc1ncnc2c1ncn2[C@@H]1C=C[C@@H](O)[C@H]1O", "measure": "EC50", "organism": "Measles virus", "cell line": "CV-1", "method": "cytopathic effect", "strain or isolate": "Chicago", "result": "1 µg/mL"}
{"compound": "CCOC(=O)c1sc(SC)cc1-c1ccc(Cl)cc1", "measure": "MIC", "organism": "Trichophyton mentagrophytes", "strain or isolate": "A-280", "result": ">100 µg/mL"}
{"compound": "Clc1cccc(Cn2ccc3nc(-c4ccccc4)nc-3c2)c1", "measure": "EC50", "organism": "Bovine viral diarrhea virus", "cell line": "MDBK", "method": "cytopathic effect", "strain or isolate": "PE515", "result": "0.042 µg/mL"}
{"compound": "CCOC(=O)c1sc(SC)cc1-c1ccc(Br)cc1", "measure": "MIC", "organism": "Trichophyton mentagrophytes", "strain or isolate": "A-280", "result": ">100 µg/mL"}
{"compound": "Nc1nc2c(ncn2COC(CO)CO)c(=O)[nH]1", "measure": "inhibition", "organism": "Herpes simplex virus 1", "cell line": "WI-38", "method": "plaque count", "tested at": "1 µM", "strain or isolate": "KOS mutant PFA-R1", "result": "90%"}
{"compound": "CC(C)(O)c1cn(-c2cccc3ccccc23)nn1", "measure": "inhibition", "organism": "Candida krusei", "method": "broth dilution", "tested at": "2048 µg/mL", "strain or isolate": "URM 4802", "result": "0%"}